Measured values from several laboratories, pooled; numbers as filed in NIAID ChemDB.

MIC bound comes from a single tested concentration.

smiles | method | dose | protein | organism | measure | strain or isolate | test | result
c1ccc(N2CCN(c3cncc(-c4csc5ccccc45)n3)CC2)cc1 | - | 1 µM | UL97 kinase | Cytomegalovirus | inhibition | - | target | <50%
CCOC(=O)c1ccc([N+](=O)[O-])cc1O | - | - | - | Mycobacterium tuberculosis | MIC | H37Rv | culture | >100 µg/mL
Fc1ccc(N2CCCCC2)c(NC(=S)c2ccncc2)c1 | kinase activity | 10 µM | DCAMKL2 | - | inhibition | - | host protein | -4%
Cc1ccc(N2CCN(c3cncc(-c4csc5ccccc45)n3)CC2)cc1C | - | - | UL97 kinase | Cytomegalovirus | IC50 | - | target | <100 µM
O=S(=O)(c1cnccc1N1CCN(CCO)CC1)N1CCCCC1 | resazurin | 6.25 µg/mL | - | Mycobacterium tuberculosis | inhibition | H37Rv | culture | -18%
CCCCN(CCCC)CCCC(O)c1cc(-c2ccccc2)nc2ccc(OC)cc12.Cl | - | - | - | Mycobacterium tuberculosis | MIC | H37Rv | culture | 100 µg/mL
Fc1ccc(N2CCN(c3cncc(-c4ccc(C(F)(F)F)cc4)n3)CC2)cc1 | - | - | UL97 kinase | Cytomegalovirus | IC50 | - | target | <10 µM
COC1=CC(=O)C(CC=C(C)C)=CC1=O | BACTEC | 128 µg/mL | - | Mycobacterium tuberculosis | inhibition | H37Rv | culture | 100%
CN(C(N)=S)c1cccc2ccccc12 | - | - | - | Mycobacterium tuberculosis | MIC | H37Rv | culture | 100 µg/mL
N#Cc1cccc(-c2cncc(N3CCN(c4ccncc4)CC3)n2)c1 | - | - | UL97 kinase | Cytomegalovirus | IC50 | - | target | <10 µM
COc1cc(/C=N/NC(=O)C[N+](C)(C)C)cc(I)c1O | BACTEC | 12.5 µg/mL | - | Mycobacterium tuberculosis | inhibition | H37Rv | culture | -2%
FC(c1ccccc1)(c1ccccc1)c1ccccc1 | - | - | - | Mycobacterium tuberculosis | MIC | H37Rv | culture | >100 µg/mL
COc1cccc(-c2cncc(N3CCN(c4ccccc4F)CC3)n2)c1 | - | 1 µM | UL97 kinase | Cytomegalovirus | inhibition | - | target | <50%
CC(C)CCCC(C)C1CCC2C3CCC4CC(NC(=O)CNCCCSC(C)C)CCC4(C)C3CCC12C | resazurin | 6.25 µg/mL | - | Mycobacterium tuberculosis | inhibition | H37Rv | culture | 95%
Cc1cc(C)c(C2=C(O)c3ccccc3C(=O)C2=O)c(C)c1 | - | - | - | Mycobacterium tuberculosis | MIC | H37Rv | culture | >100 µg/mL
CC1=C(/C=C/C(C)=N/NC(=O)c2ccncc2)C(C)(C)CCC1 | resazurin | - | - | Mycobacterium tuberculosis | MIC | H37Rv | culture | ≤0.1 µg/mL
FC1(c2cncc(N3CCN(c4cnccn4)CC3)n2)C=CC(c2ccccc2)=CC1 | - | 10 µM | UL97 kinase | Cytomegalovirus | inhibition | - | target | >15%
COC12OCCN(C)C1=CC(=O)C1=NNC(C)C12 | BACTEC | - | - | Mycobacterium tuberculosis | MIC bound | H37Rv | culture | >12.5 µg/mL
NCCc1ccc(N)cc1 | - | - | - | Mycobacterium tuberculosis | MIC | H37Rv | culture | >100 µg/mL
O=C1NNC2NC(=O)C3(NN2C1=O)c1ccccc1-c1ccccc13 | BACTEC | - | - | Mycobacterium tuberculosis | MIC bound | H37Rv | culture | >12.5 µg/mL
NC(=O)/C=C/C(=O)O | - | - | - | Mycobacterium tuberculosis | MIC | H37Rv | culture | >100 µg/mL

For reference, 2 entries again:

smiles,method,dose,protein,organism,measure,strain or isolate,test,result
FC1(c2cncc(N3CCN(c4cnccn4)CC3)n2)C=CC(c2ccccc2)=CC1,-,10 µM,UL97 kinase,Cytomegalovirus,inhibition,-,target,>15%
CN(C(N)=S)c1cccc2ccccc12,-,-,-,Mycobacterium tuberculosis,MIC,H37Rv,culture,100 µg/mL

Lines come from different laboratories, so protocols vary. Blank or dashed fields: not listed here. ICn is the concentration giving n% inhibition. Inhibition is in % at the dose shown (toxicity tests: loss of growth or viability).